18 molecules from patent US20230348573A1 (KEIO UNIVERSITY, published 2023) can be followed below.

Assay in all cases: ACE2 competition, spike on 293T cells, antibody 4 µg/mL
The target in experiment [1] is T1, full-length spike protein of SARS-CoV-2 β strain (SARS-CoV-2 (β strain)).
T1 construct: whole, on cells; Expressed in 293T cells

Experiment [2] has as its target T2, full-length spike protein of SARS-CoV-2 γ strain (SARS-CoV-2 (γ strain)).
T2 construct: whole, on cells; Expressed in 293T cells

The target in experiment [3] is T3, full-length spike protein of SARS-CoV-2 α strain (SARS-CoV-2 (α strain)).
T3 construct: whole, on cells; Expressed in 293T cells

B1: Ab326 (antibody, V domains shown)
VH: EVQLVESGGGVVQPGRSLRLSCAASGFTFSHYPMHWVRQAPGRGLEWVAVISYDGSNQHYVDSVKGRFTISRDNSKNTLYLQMNSLRAEDTAVYFCASLITMIRGVPDYWGQGTLVTVSS
VL: DIQMTQSPSSLSASVGDRVTITCRASQSISNYLNWYQQKPGKAPNLLIFAASSLQSGVPSRFSGSGSGTEFTLTISSLQPEDFAAYYCLQTYSTPRTFGQGTRLEIK
As for B1, the “binding amount (%) of ACE2 protein” value in experiment [1] came to 79.1%; in experiment [2] it was 90.9%.

B2: Ab188 (antibody, V domains shown)
VH: EVQLVESGGGLVQPGGSLRLSCAASGFTFINYKMNWVRQAPGKGLEWVSYISSGSDAIYYADSVKGRFTISRDNAKNSLYLQMNSLRDEDTALYYCARGGGYNYGECMDVWGQGTTVTVSS
VL: not shown
As for B2, the “binding amount (%) of ACE2 protein” value in experiment [2] stood at 3.5%.

B3: Ab712 (antibody, V domains shown)
VH: QVQLVQSGSELKKPGASVKISCKASGYTFINHAINWVRQAPGQGLEWMGWINTNTGNPTYAPGFTGRFVFSLDTSVSTAYLQISSLKAEDTAVYYCARIPIRDYDYDGSGYYYFLDYWGQGTLVTVSS
VL: SYELTQDPAVSVALGQTVRITCQGDSLRSSSASWYQQKPGQAPVLVIYGKTNRPSGIPDRFSGSSSGNTASLTITGAQAEDEADYYCNSRDNSGNHPVVFGGGTKLTVL
Take B3: the “binding amount (%) of ACE2 protein” value is 4.4% in experiment [3], 3.8% in experiment [1] and 8.1% in experiment [2].

B4: Ab496 (antibody, V domains shown)
VH: EVQLVQSGPEVKKPGTSVKVSCKASGFIFTNSAVQWVRQARGQRLEWIGWIVVGSGNPNYAQKFQERVTITRDRSTSTAYMELSSLTSEDTAVYYCAAFPYYYDNSGSGPWGQGTLVTVSS
VL: DIQLTQSPSSLSASVGDRVTITCQASQDIRNNLNWYQQIPGKAPKLLIYDASNLETGVPSRFSGSASGTDFTFTISSLQPEDVATYYCQQYANLPPFTFGPGTKVDIK
Regarding B4, the “binding amount (%) of ACE2 protein” value in experiment [1] turned out to be 133%.

B5: Ab847 (antibody, V domains shown)
VH: EVQLVQSGAEVKKPGASVKVSCKASGYTFTSYDIIWVRQATGQGLEWMGWMDPSRGTTGYAQTFQGRVTMTRDTSISTAYLELNSLTSEDTAVYYCVAHIVVLDRWFDPWGQGTLVTVSS
VL: DIVMTQSPSSLSASVGDRVTITCQASQDIGNFLNWCQQKPGQAPKVLIYGASNLETGVPSRFSGSGSGTDFTFTISSLQPEDIATYYCQHYDNFPPRFTFGQGTKLDIK
For B5, the “binding amount (%) of ACE2 protein” value in experiment [3] amounted to 0.3%; in experiment [1], 0.3%; in experiment [2] it was 0.4%.

B6: Ab863 (antibody, V domains shown)
VH: EVQLVQSGAEVKKPGASVKVSCQASGYTFITYYMHWVRQAPGQGLEWMGIINPDGGSISYAQKFQGRVTMTRDTSTSTVYMELSSLRSEDTAVYYCARGLSPTFSSSWFDNWGLGTLVTVSS
VL: DVVMTQSPATLSVSPGERATLSCRASQSVSSNLAWYQQKPGQAPRLLIYGASTRDTGIPARFSGSGSGTEFTLTISSLQSEDFAVYFCQQYKNWLLTFGGGTKVEIK
Turning to B6, the “binding amount (%) of ACE2 protein” value amounted to 8.3% in experiment [3], 3.4% in experiment [1] and 5.3% in experiment [2].

B7: Ab709TK (antibody, V domains shown)
VH: QVQLVESGGGVVQPGKSLRLSCAASGFTFSSYAMHWVRLAPGKGLEWVAVISPDGKNKYYVDSVKGRSTISRDNSKNTLYLLMNSLRAEDTAVYYCATTQSLWFGQFYYIYGMDVWGQGTTVTVSS
VL: QSVLTQPHSVSESPGKTITISCTGSSGSIASNYVQWYQQRPGSAPTTVIYEDTERPSGVPDRFSGSIDSSSNSASLTISGLKTEDEADYYCQSYDSNNVVFGGGTKLTVL
Turning to B7, the “binding amount (%) of ACE2 protein” value in experiment [3] stood at 0.6%; in experiment [1], 1.8%; in experiment [2], 2.4%.

B8: Ab302 (antibody, V domains shown)
VH: EVQLVESGGGLVQPGGSLRLSCAASGVIVSRNYMTWVRQAPGKGLEWVSVIYSGGSTFYADSVKGRFTISRDNSKNTLYLQMNSLRAEDTAVYYCARDRGEDVFDIWGQGTMVTVSS
VL: DIQLTQSPSSLSASVGDRVTITCRASQGISSYLAWYQQKPGKAPKLLIYAASTLQSGVPSRFSGSGSGTDFTLTISSLQPEDFATYYCQQLNSYPGYTFGQGTKLEIK
Turning to B8, the “binding amount (%) of ACE2 protein” value worked out at 9.2% in experiment [3], 92.6% in experiment [1] and 84.6% in experiment [2].

B9: Ab336 (antibody, V domains shown)
VH: QVQLQQSGPGLVKPSETLSLTCTVSGGSISSYYWTWIRQPPGKGLEWIAYISYSGSTNYNPSLRSRVTISVDTSKNQFSLKLSSVTAADTAVYYCARDYYYDNSGYPDSYYGMDVWGQGTTVTVSS
VL: DIQLTQSPSTLSASVGDRVTITCRASQRISSWLAWYQQKPGKAPKLLIYKASTLQSGVPSRFSGSGSGTEFTLTISSLQPDDFATYYCQQYNSFSWTFGQGTKVEIK
For B9, the “binding amount (%) of ACE2 protein” value in experiment [3] came out at 4.2%; in experiment [1], 117%.

B10: Ab287 (antibody, V domains shown)
VH: QVQLVQSGAEVKKPGSSVKVSCKASGDTFSSYAISWVRQAPGQGLEWMGRIILIFGVANYAQKFQGRVTITADKSTSTAYMELSSLRSEDTAVYYCARGGFYYDSSGYHLDYWGQGTLVTVSS
VL: EIVLTQSPGTLSLSPGERATLSCRPSQSVSSSYLAWYQQRPGQAPRLLIYGASSRATGIPDRFSGSGSGTDFTLTISRLEPEDFAVYYCHQYGSSPRTFGQGTKVEIK
As to B10, the “binding amount (%) of ACE2 protein” value in experiment [1] came to 128%; in experiment [2], 109%.

B11: Ab803 (antibody, V domains shown)
VH: EVQLVESGGGLVQPGRSLRVSCAASGFTFDDYAMHWVRQTPRKGLEWVAGISRNSAAIAYADSVKGRFTISRDNAKNSVFLQMNGLRADDTALYYCVKSPRYGWGSPDYSFDFWGRGTLVTVSS
VL: DIQLTQSPSSLSASVGDRVTITCRASQNIGTYLNWYQQEPGKAPKLLIYAASSLQSGVPSRFSGSGSGTDFTLTISSLQPEDFATYCCQQSFTTPLTFGQGTKVEIK
Consider B11, for which the “binding amount (%) of ACE2 protein” value is 0.9% in experiment [3], 1.4% in experiment [1] and 1.8% in experiment [2].

B12: Ab816 (antibody, V domains shown)
VH: QVQLVQSGAEVKKPGESLMISCKASGYNFRNYWIAWVRQMPGKGLEWMGIIHPGDSDIRYRPSLQGHVTISADKSITTAYLQWGSLKASDTAMYYCTRITTDADSSGLFHYWGQGTLVTVSS
VL: EIVLTQSPSTLSASVGDRVTITCRASQNIYTWLAWYQRKPGKAPKVLIYKASSLESGVPSRFSGSGSGTEFTLTISSLQPDDFATYYCQQYKSAWSFGQGTKVEIK
As for B12, the results for the “binding amount (%) of ACE2 protein” value in experiment [3], in experiment [1] and in experiment [2] were 0.5%, 0.4% and 0.7%, respectively.

B13: Ab354 (antibody, V domains shown)
VH: QVQLVQSGAEVKKPGASVTVSCKASGFLFTGYYMHWVRQAPGQGLEWMGWINPNSGASNYTRKFQGRVTMTRDTSISATYMKLSRLTSDDTAVYYCARDLAFSMVRGALDYWGQGTLVTVSS
VL: QLVLTQPPSASGSPGQSVTISCTGTSSDVGGYNYVSWYQHHPGKAPKLMIYEVSKRPSGVPDRFSGSKSGNTASLTVSGLQAEDEADYYCNSYAGNNNWVFGTGTKVTVL
As for B13, the “binding amount (%) of ACE2 protein” value in experiment [1] worked out at 133%.

B14: Ab830 (antibody, V domains shown)
VH: QVQLVQSGAEVKKPGSSVKVSCKTSGGTFTNYTISWVRQAPGQGLEWMGRIIPIFDIVNYAQKFQGRVTITADKSTSTTYMELSSLRSEDTAVYYCARDGVLYDTSGYLYDAFDIWGQGTMVTVSS
VL: DIQMTQSPSSLSASVGDRVTITCRASQGINNYLAWFQQKPGKAPKSLIYAASSLQSGVPPKFSGSGSGTDFTLTISSLQPEDFATYYCLHYNSYPWTFGQGTKVEIK
Regarding B14, the “binding amount (%) of ACE2 protein” value is 1.1% in experiment [3], 4.4% in experiment [1] and 6.7% in experiment [2].

B15: Ab765 (antibody, V domains shown)
VH: QVQLVESGGGVVQPGRSLRLSCAASGFTFSDYAIHWVRQAPGRGLEPVALISYDGNNKYYADSVKGRFTISRDNSKNVLYLQMNSLRADDTAVYYCARDAEGGWVAALDYWGQGTLVTVSS
VL: QSALTQPRSVSGSPGQSVTISCTGTSSDVGGYNYVSWYQHHPGKAPKVMIYEVSKRPSGVPDRFSGSKSGTTASLTISGLQAEDEADYYCCSYAGTYPYVFGTGTKVTVL
As for B15, the “binding amount (%) of ACE2 protein” value worked out at 2.6% in experiment [3], 1.9% in experiment [1] and 3.3% in experiment [2].

B16: Ab114 (antibody, V domains shown)
VH: EVQLVESGGGLIQPGGSLRLSCAASGFTVSSNYMNWVRQAPGKGLEWVSVIYSGGSTFYADSVKGRFTISRDNSKNTLYLQMNSLRVEDTAVYYCARDLDTQGGMDVWGQGTTVTVSS
VL: EIVLTQSPGSLSLSPGERATLSCRASQGVSSSYLAWYQHKPGQAPRLLIFGASTRATGIPDRFSGSGSGTDFTLTISRLEPEDFAVYYCQLYGSSPGTFGQGTKLEIK
As for B16, the “binding amount (%) of ACE2 protein” value in experiment [3] came to 4.4%; in experiment [1], 7.1%.

B17: Ab176 (antibody, V domains shown)
VH: EVQLVESGGGLVQPGGSLRLSCAASGFTFSSYSMNWVRQAPGKGLEWVSYISGSSSTIYYADSVKGRFTISRDNAKNSLYLQMNSLRAEDTAVYYCVSSEWLLPRFFDYWGQGTLVTVSS
VL: QPVLTQEASVSGTVGQKVTLSCTGNRNNIGSYPVGWYQQISHGAPKTVMFGNSPPSGIPDRFFGSRSGTTASLTISGLQPEDEADYYCSTWDYSLSAVVFGGGTKLTVL
Turning to B17, the “binding amount (%) of ACE2 protein” value in experiment [3] amounted to 10.8%; in experiment [1] it was 18.6%.

B18: Ab445 (antibody, V domains shown)
VH: EVQLVESGGGVVQPGTSPRLSCAASGFTFSNSGMHWVRQAPGKGLEWVAVIWYDGSKKYYVDSVKGRFTISRDNSKNTLYLQMNSLRAEDTAVYYCARDGTVAVRGVMNPFFDYWGQGTLVTVSS
VL: DIQLTQSPSSLSASVGDRVTITCQASQDISNYLNWYQQIPGKAPKLLIYDASNLETGVPSRFSGSGSGTDFTFTISSLQPEDIATYYCQQYDNLPYTFGQGTKLEIK
Regarding B18, the “binding amount (%) of ACE2 protein” value in experiment [3] came to 118%; in experiment [2] it was 128%.
